Data source: PubChem BioAssay AID1259414 (Drosophila RNAi Screening Center, 2018)
Assay: 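Host factors increasing or decreasing Wolbachia levels in cultured fly cells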 (primary screen). Cells: Drosophila JW18 cells infected with Wolbachia. Knock-down reagent: long dsRNA against Drosophila genes, 0.25 µg dsRNA per well of a 384-well plate. Timing: 5 days. Conditions: cells persistently infected with Wolbachia before knock-down; no added drug. Read-out: 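Automated imaging of bacterial rRNA staining divided by host cell count, reported as plate-normalised robust z-score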. Direction: Wolbachia per cell robust z: higher = more Wolbachia per host cell than the plate typical. Rule for the call: 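Active if absolute robust z reaches 1.5 in two or more of three replicates, leaving out multi- or no-target dsRNAs, genes unexpressed in JW18 and A1 wells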.
In all, the deposit lists about 24,000 reagents; this is an unselected part of those that have a named target and a result. In the full data, about 1,210 (5%) got an active call. 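Inactive calls also include excluded dsRNAs with several or no targets, genes unexpressed in JW18, and well A1, regardless of score.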 Entries without a mark were called inactive.

predicted target	PubChem SID	Wolbachia per cell robust z, rep 1	Wolbachia per cell robust z, rep 2	Wolbachia per cell robust z, rep 3
Hrb27C	SID104183139	1.88 (active)	2.57	2.06
Hrb27C	SID104206867	1.31	1.69	1.13
Zir	SID104180099	-3.56 (active)	-6.95	1.46
CG30338	SID104184958	-3.16 (active)	-1.54	-11.8
CG30283	SID104183863	-2.65 (active)	-0.112	-6.09
CG30283	SID104203178	-0.425	-1.04	-1.32
DJ-1alpha	SID104186797	0.0916	-0.955	-0.307
kek5	SID104199230	-0.0884	0.605	0.0553
kek5	SID104203216	-1.96 (active)	-0.382	-1.73
kek5	SID104216579	-0.603	-2	0.159
CG34174	SID104179893	0.485	1	0.35
TpnC73F	SID104191099	-3.03	-0.121	-1.62
Ctr9	SID104188354	0.712	0.2	-0.548
Ctr9	SID104205852	0.14	0.945	-1.48
TwdlH	SID104194527	-3.28	-0.0809	-1.45
AnxB9	SID104193903	-0.396	0.196	0.0915
AnxB9	SID104204259	-3.21	2.22	0.453
AnxB9	SID104216515	-3.04	-0.879	-1.27
Ugt35E2	SID104195875	0.748	0.504	-0.117
Ugt35E2	SID104205900	0.355	0.342	0.53
Pdzd8	SID104199147	-0.191	-0.326	-1.47
Pdzd8	SID104202852	-0.518	-0.0117	0.574
PolH	SID104191592	-2.1	-1.35	0.683
Srp9	SID104190765	-2.04	-4	-4.81
CG32720	SID104197321	0.153	-0.611	0.504
Naa40	SID104196057	-4.18	0.541	0.411
Xpc	SID104187446	-2.63	0.849	-0.839
CG16782	SID104197910	0.614	1.39	0.873
dpr20	SID104188057	-0.256	0.251	0.774
CG9616	SID104196310	-0.86	-0.0933	-1.45
CG9616	SID104206449	-3.87	0.244	1.68
Vha16-4	SID104187113	0.914	0.276	-0.402
Fntb	SID104195036	-1.71	0.111	0.7
Fntb	SID104206702	-2.12	-0.326	-0.202
CR17024	SID104182354	-0.105	0.916	0.88
CG31446	SID104192903	0.044	0.0952	0.312
Gad1	SID104188453	-3.14	0.763	0.634
Gad1	SID104205596	0.435	-0.341	1.71
Sf3a2	SID104189593	0.281	1.18	-8.65
ng1	SID104198594	1.04	-0.121	-0.481
Lon	SID104190841	-0.523	-1.24	0.702
Lon	SID104204559	-0.559	0.757	0.00189
CG9664	SID104180517	-1.19	-3.95	0.45
CG13539	SID104183973	-0.667	-0.753	-0.389
CG13539	SID104207227	-0.379	1.23	-0.484
bchs	SID104182918	2.19	0.0767	0.927
CG2854	SID104198387	-1.88	-0.826	-0.223
CG5399	SID104195583	-0.338	0.614	0.543
CG5399	SID104203903	-0.256	-0.943	0.0691
Nnp-1	SID104181957	1.23	0.111	0.45
Nnp-1	SID104208360	-0.211	1.22	1.38
Cyp313a1	SID104196416	0.666	0.371	0.259
Cyp313a1	SID104207356	0.38	0.225	0.174
CG10000	SID104193962	-4.19	0.658	-4.96
CG10000	SID104208335	-7.32	0.269	-3.49
CG18063	SID104181760	2.13	1.55	0.536
CG33986	SID104215378	0.356	0.895	0.606
CG6034	SID104190364	-5.05	-0.254	-0.258
CG6034	SID104205838	-4.68	-4.95	-0.501
Fer2	SID104195717	1.45	0.234	-0.051
CG8043	SID104196160	0.276	0.309	0.905
CG12986	SID104199298	0.203	0.997	0.0378
hd	SID104192108	0.966	0.579	0.835
hd	SID104204846	-1.44	0.249	-0.797
Samtor	SID104184182	-4.19	-1.15	-0.261
Samtor	SID104203088	0.689	-0.02	0.593
CG31635	SID104182065	1.11	-0.682	-1.68
CG3061	SID104195252	-0.435	-0.235	-1.65
CG3061	SID104204963	0.674	0.385	1.41

Targets listed so far whose target name starts with H or h (4):
predicted target	PubChem SID	Wolbachia per cell robust z, rep 1	Wolbachia per cell robust z, rep 2	Wolbachia per cell robust z, rep 3
Hrb27C	SID104183139	1.88 (active)	2.57	2.06
Hrb27C	SID104206867	1.31	1.69	1.13
hd	SID104192108	0.966	0.579	0.835
hd	SID104204846	-1.44	0.249	-0.797
